Data on 19 compounds can be found in the NIST ThermoML archive (doi:10.1016/j.jct.2018.07.024).

± gives the expanded uncertainty stated by the source.

The nature of the series: activity coefficient (dimensionless); xn = mol fraction of the nth substance listed. The following applies: 101.33 kPa, Liquid, Chromatography, x1 = 0.

Turning to `C1COCCO1` [1,4-dioxane] + CCCC[N+]1(C)CCCC1.O=S(=O)(F)[N-]S(=O)(=O)F, the activity coefficient came to 0.726 ± 0.048 (318.15 K); 0.783 ± 0.051 (328.15 K); 0.841 ± 0.054 (338.15 K); 0.899 ± 0.057 (348.15 K); 0.958 ± 0.06 (358.15 K); 1.02 ± 0.06 (368.15 K).

Regarding `C=Cc1ccccc1` [styrene] + CCCC[N+]1(C)CCCC1.O=S(=O)(F)[N-]S(=O)(=O)F, the activity coefficient turned out to be 1.28 ± 0.08 (318.15 K); 1.37 ± 0.09 (328.15 K); 1.46 ± 0.1 (338.15 K); 1.55 ± 0.1 (348.15 K); 1.64 ± 0.11 (358.15 K); 1.74 ± 0.12 (368.15 K).

Turning to `CC(C)CC(C)(C)C` [2,2,4-trimethylpentane] + CCCCCCCC[N+](CC)(CC)CC.O=S(=O)(F)[N-]S(=O)(=O)F, the activity coefficient is, setting by setting: (318.15 K) 12.5 ± 0.9; (328.15 K) 12.4 ± 0.8; (338.15 K) 12.3 ± 0.8; (348.15 K) 12.2 ± 0.8; (358.15 K) 12.1 ± 0.8; (368.15 K) 12 ± 0.8.

`CC(C)=O` [acetone] + CCCC[N+]1(C)CCCC1.O=S(=O)(F)[N-]S(=O)(=O)F: the activity coefficient reads like this: (318.15 K) 0.601 ± 0.042; (328.15 K) 0.639 ± 0.044; (338.15 K) 0.677 ± 0.046; (348.15 K) 0.715 ± 0.048; (358.15 K) 0.754 ± 0.05; (368.15 K) 0.794 ± 0.052.

In the case of `C=CCCCCCCCC` [1-decene] + CCCCCCCC[N+](CC)(CC)CC.O=S(=O)(F)[N-]S(=O)(=O)F, the activity coefficient runs as follows: (318.15 K) 13.2 ± 0.9; (328.15 K) 13.2 ± 0.9; (338.15 K) 13.3 ± 0.9; (348.15 K) 13.3 ± 0.9; (358.15 K) 13.3 ± 0.9; (368.15 K) 13.4 ± 0.9.

Take `CCCCCCCCCC` [decane] + CCCC[N+]1(C)CCCC1.O=S(=O)(F)[N-]S(=O)(=O)F: the activity coefficient came to 107 ± 7 (318.15 K); 101 ± 7 (328.15 K); 96.2 ± 6.6 (338.15 K); 92.1 ± 6.3 (348.15 K); 88.1 ± 6 (358.15 K); 84.8 ± 5.8 (368.15 K).

Consider `COC(C)(C)C` [2-methoxy-2-methylpropane] + CCCC[N+]1(C)CCCC1.O=S(=O)(F)[N-]S(=O)(=O)F, for which the activity coefficient reads like this: (318.15 K) 3.5 ± 0.24; (328.15 K) 3.72 ± 0.25; (338.15 K) 3.93 ± 0.27; (348.15 K) 4.15 ± 0.28; (358.15 K) 4.35 ± 0.3; (368.15 K) 4.56 ± 0.31.

As for `C1=CCCCC1` [cyclohexene] + CCCCCCCC[N+](CC)(CC)CC.O=S(=O)(F)[N-]S(=O)(=O)F, the activity coefficient by setting is: (318.15 K) 2.97 ± 0.2; (328.15 K) 3.03 ± 0.21; (338.15 K) 3.09 ± 0.21; (348.15 K) 3.14 ± 0.21; (358.15 K) 3.19 ± 0.22; (368.15 K) 3.25 ± 0.22.

As for `C=Cc1ccccc1` [styrene] + CCCCCCCC[N+](CC)(CC)CC.O=S(=O)(F)[N-]S(=O)(=O)F, the activity coefficient is 0.647 ± 0.044 (318.15 K); 0.701 ± 0.047 (328.15 K); 0.755 ± 0.05 (338.15 K); 0.81 ± 0.052 (348.15 K); 0.867 ± 0.055 (358.15 K); 0.922 ± 0.058 (368.15 K).

`CCC(C)(C)C` [2,2-dimethylbutane] + CCCC[N+]1(C)CCCC1.O=S(=O)(F)[N-]S(=O)(=O)F: the activity coefficient (318.15 K) came out at 25.8 ± 1.8; the activity coefficient (328.15 K) amounted to 25.5 ± 1.7; the activity coefficient (338.15 K) amounted to 25.1 ± 1.7; the activity coefficient (348.15 K) was 24.7 ± 1.7; the activity coefficient (358.15 K) is 24.4 ± 1.7; the activity coefficient (368.15 K) worked out at 24.2 ± 1.7.

Turning to `Cc1cccc(C)c1` [1,3-dimethylbenzene] + CCCCCCCC[N+](CC)(CC)CC.O=S(=O)(F)[N-]S(=O)(=O)F, the activity coefficient (318.15 K) was 1.11 ± 0.07; the activity coefficient (328.15 K) came to 1.19 ± 0.08; the activity coefficient (338.15 K) stood at 1.27 ± 0.08; the activity coefficient (348.15 K) was 1.35 ± 0.09; the activity coefficient (358.15 K) came out at 1.43 ± 0.09; the activity coefficient (368.15 K) is 1.52 ± 0.1.

As to `C=CCCCCC` [1-heptene] + CCCCCCCC[N+](CC)(CC)CC.O=S(=O)(F)[N-]S(=O)(=O)F, the activity coefficient (318.15 K) worked out at 6.27 ± 0.43; the activity coefficient (328.15 K) stood at 6.37 ± 0.43; the activity coefficient (338.15 K) worked out at 6.46 ± 0.44; the activity coefficient (348.15 K) was 6.55 ± 0.45; the activity coefficient (358.15 K) came to 6.64 ± 0.45; the activity coefficient (368.15 K) came to 6.71 ± 0.46.

For `CCO` [ethanol] + CCCCCCCC[N+](CC)(CC)CC.O=S(=O)(F)[N-]S(=O)(=O)F, the activity coefficient by setting is: (318.15 K) 1.98 ± 0.13; (328.15 K) 1.87 ± 0.13; (338.15 K) 1.78 ± 0.12; (348.15 K) 1.7 ± 0.11; (358.15 K) 1.63 ± 0.11; (368.15 K) 1.56 ± 0.1.

Consider `CCOC(C)=O` [ethyl acetate] + CCCCCCCC[N+](CC)(CC)CC.O=S(=O)(F)[N-]S(=O)(=O)F, for which the activity coefficient (318.15 K) was determined as 0.902 ± 0.057; the activity coefficient (328.15 K) was determined as 0.952 ± 0.06; the activity coefficient (338.15 K) was 1 ± 0.06; the activity coefficient (348.15 K) was 1.06 ± 0.07; the activity coefficient (358.15 K) worked out at 1.11 ± 0.07; the activity coefficient (368.15 K) was 1.16 ± 0.07.

Consider `O` [water] + CCCC[N+]1(C)CCCC1.O=S(=O)(F)[N-]S(=O)(=O)F, for which the activity coefficient stood at 3.84 ± 0.26 (318.15 K); 3.51 ± 0.24 (328.15 K); 3.23 ± 0.22 (338.15 K); 2.99 ± 0.2 (348.15 K); 2.78 ± 0.19 (358.15 K); 2.59 ± 0.18 (368.15 K).

With `C1=CCCCC1` [cyclohexene] + CCCC[N+]1(C)CCCC1.O=S(=O)(F)[N-]S(=O)(=O)F, the activity coefficient by setting is: (318.15 K) 6.46 ± 0.44; (328.15 K) 6.55 ± 0.45; (338.15 K) 6.62 ± 0.45; (348.15 K) 6.72 ± 0.46; (358.15 K) 6.81 ± 0.46; (368.15 K) 6.87 ± 0.47.

Take `CCOC(C)(C)C` [2-ethoxy-2-methylpropane] + CCCCCCCC[N+](CC)(CC)CC.O=S(=O)(F)[N-]S(=O)(=O)F: the activity coefficient reads like this: (318.15 K) 4.18 ± 0.28; (328.15 K) 4.3 ± 0.29; (338.15 K) 4.43 ± 0.3; (348.15 K) 4.55 ± 0.31; (358.15 K) 4.67 ± 0.32; (368.15 K) 4.79 ± 0.33.

Take `C1CCCCCC1` [cycloheptane] + CCCCCCCC[N+](CC)(CC)CC.O=S(=O)(F)[N-]S(=O)(=O)F: the activity coefficient runs as follows: (318.15 K) 6.11 ± 0.42; (328.15 K) 6.05 ± 0.41; (338.15 K) 6 ± 0.41; (348.15 K) 5.93 ± 0.4; (358.15 K) 5.87 ± 0.4; (368.15 K) 5.81 ± 0.4.

`CC(C)c1ccccc1` [isopropylbenzene] + CCCCCCCC[N+](CC)(CC)CC.O=S(=O)(F)[N-]S(=O)(=O)F: the activity coefficient (318.15 K) was found to be 1.63 ± 0.11; the activity coefficient (328.15 K) worked out at 1.71 ± 0.11; the activity coefficient (338.15 K) worked out at 1.8 ± 0.12; the activity coefficient (348.15 K) was found to be 1.89 ± 0.13; the activity coefficient (358.15 K) was 1.98 ± 0.13; the activity coefficient (368.15 K) stood at 2.07 ± 0.14.
